The list shows a part of the results, in another mix than the full data. Some structures show a salt or complex split into parts, the way the source records it. The source made the active and inactive calls. Calls come from the whole dose curve; as a rule, active = well fitted inhibition curve with a large enough effect; inconclusive = small, poorly fitted or top-dose-only effect; inactive = no such curve, though single readings can be large or run the other way.
The compounds below were run against Schistosoma mansoni thioredoxin glutathione reductase (TGR) (UniProt Q962Y6) (assay: qHTS Assay for the Inhibitors of Schistosoma Mansoni Peroxiredoxins). Conditions: purified TGR, DTNB reduction, TNB absorbance 405 nm; series mostly up to 114 µM; activity change, negative = inhibition: at the top concentration.
Description: Schistosomiasis is a major neglected tropical disease that currently affects over 200 million. It is caused by different species of flatworms, such as Schistosoma mansoni. Over the last century, drugs to treat the disease have evolved from potassium antimonyl tartrate, artemisinin, oxamniquine, to praziquantel, with praziquantel remaining the universally-used single drug of choice over the past three decades. However, transmission rates have changed little with praziquantel, and there is evidence for the development of drug resistant parasites. Because there is currently no suitable alternative therapy available, there is an urgent need to identify new targets and drugs for schistosomiasis treatment. Thioredoxin glutathione reductase (TGR), one uniquely positioned S. mansoni enzyme, has been identified as a major component of the worms' distinct and compressed antioxidant "firewall". TGR is a multifunctional enzyme that catalyzes the interconversion between reduced and oxidized forms of both glutathione (GSH) and thioredoxins, thus making it an attractive new antiparasitic target. Recently, a quantitative high-throughput screen of the NIH Molecular Libraries Small Molecule Repository (MLSMR, ~71K at the time of the screen in 2007) was performed using an assay that targeted both TGR and peroxiredoxin2 (Prx2, an H2O2-reducing enzymatic component of the S. mansoni redox "firewall") by following the decrease of NADPH fluorescence. […] Additional mechanistic link between exogenous NO donation and parasitic injury for the oxadiazole-2-oxide class of compounds was also expanded and better defined. Although the screen addressed both TGR and Prx2, the assay required post-screen target deconvolution for further characterization of the actives. In addition, the fluorescence assay was also subject to fluorescence interference from compound library members. We have developed a 1536-well-based kinetic HTS assay to address TGR alone. The assay followed the reduction of 5, 5'-dithiobis (2-nitrobenzoic acid) (DTNB) (Ellman's reagent) by NADPH and measured the increase in absorbance at 412 nm of the reaction product, TNB. […] This assay format can be used to screen the current MLSMR collection (with >300K compounds available) to find novel TGR inhibitors. Furoxan is a good choice to serve as a positive control in the primary HTS assay.
Three microliters of reagents (100 uM NADPH and 20 nM TGR or 100 uM NADPH as no-enzyme control) were dispensed into 1,536-well black clear-bottomed plates. Compounds (23 nL) were transferred via Kalypsys pin tool equipped with 1536-pin array (10 nL slotted pins, V&P Scientific, San Diego, CA). The plates were then be incubated for 15 min at room temperature, and 1 uL aliquot of 500 uM NADPH were added, immediately followed by a 1 uL aliquot of 15 mM DTNB to start the reaction. The plate was transferred to a ViewLux high-throughput CCD imager (Perkin-Elmer, Wellesley, MA) where kinetic measurements of the TNB absorbance were acquired using a 405 excitation filter. Throughout the screen, reagent bottles and all liquid lines were made light-tight to minimize reagent degradation. All screening operations were performed on a fully integrated robotic system (Kalypsys, San Diego, CA) containing one RX-130 and two RX-90 anthropomorphic robotic arms (Staubli, Duncan, SC). Library plates were screened starting from the lowest and proceeding to the highest concentration, and a "double-dipping" step of the highest concentration was required to access higher concentrations of compounds. Vehicle-only plates, with DMSO being pin-transferred to the entire column 5-48 compound area, were inserted uniformly at the beginning and the end of each library in order to monitor for and record any shifts in the background, which can be affected by reagent dispensers or loss in enzyme activity overtime. […]
`O=C(NCC1(N2CCCCC2)CCCCC1)c1cncc(Br)c1` was tested, and the “activity change, negative = inhibition” value was inactive: 6.04%. With `COc1ccc2c(c1O)-c1c(O)c(OC)cc3c1[C@H](C2)[N+](C)(C)CC3.O=[N+]([O-])c1cc([N+](=O)[O-])c([O-])c([N+](=O)[O-])c1[O-]` the “activity change, negative = inhibition” value was inactive: -28.2%. In the case of `CCCOc1ccc(C(=O)NCC2(N(C)C)CCCCC2)cc1OC`, the “activity change, negative = inhibition” value is reported as inactive: 0%. With `O=C(NCC1(N2CCOCC2)CCCCC1)c1ccccc1Br` the “activity change, negative = inhibition” value was inactive: 0.468%. In the case of `CCCCOc1ccccc1C(=O)NCC1(N2CCOCC2)CCCCC1`, the “activity change, negative = inhibition” value is reported as inactive: -5%. In the case of `CN(C)c1cccc(C(=O)NCC2(N3CCCCC3)CCCCC2)c1`, the “activity change, negative = inhibition” value is reported as inactive: 1.77%. In the case of `O=[N+]([O-])c1cc([N+](=O)[O-])c(OC2CCCCC2O)c([N+](=O)[O-])c1` (stereo unspecified), the “activity change, negative = inhibition” value is reported as inactive: -25.1%. `COc1ccc(CN(CCCl)CCCl)cc1Cl` was tested, and the “activity change, negative = inhibition” value was inactive: 9.28%. `CC(C)c1ccc(NC2CCN(C(=O)OC(C)(C)C)CC2)cc1` was tested, and the “activity change, negative = inhibition” value was inactive: -0.823%. With `COc1cc(OC)c(C(=O)NCC2(N(C)C)CCCCC2)cc1OC` the “activity change, negative = inhibition” value was inactive: 0%. `O=C(NCC1(N2CCCCC2)CCCCC1)c1cccc(C(F)(F)F)c1` was tested, and the “activity change, negative = inhibition” value was inactive: -4.32%. `CCCOc1cccc(C(=O)NCC2(N3CCOCC3)CCCCC2)c1` was tested, and the “activity change, negative = inhibition” value was inactive: -3.08%. In the case of `O=[N+]([O-])c1cc([N+](=O)[O-])c(NCC2CCS(=O)(=O)C2)c([N+](=O)[O-])c1` (stereo unspecified), the “activity change, negative = inhibition” value is reported as inactive: -32.3%. In the case of `COc1ccc(NC2CCN(C(=O)OC(C)(C)C)CC2)cc1`, the “activity change, negative = inhibition” value is reported as inactive: 5.25%. For `CC(C)c1ccc(C(=O)NCC2(N3CCOCC3)CCCCC2)cc1`, the “activity change, negative = inhibition” value was inactive: 0.407%. With `CN1CCN(CCOC(=O)C(O)(c2ccccc2)c2ccccc2)CC1` the “activity change, negative = inhibition” value was inactive: -9.58%. `O=C(NCC1(N2CCOCC2)CCCCC1)c1cc(=O)[nH]c2ccccc12` was tested, and the “activity change, negative = inhibition” value was inactive: -0.185%. `COc1cc(C(=O)NCC2(N3CCCCC3)CCCCC2)ccc1OC(F)F` was tested, and the “activity change, negative = inhibition” value was inactive: -15.2%. `O=C(NCC1(N2CCCCC2)CCCCC1)c1ccc(OC(F)F)cc1` was tested, and the “activity change, negative = inhibition” value was inactive: -5.78%. With `O=C(NCC1(N2CCCCC2)CCCCC1)c1cccc([N+](=O)[O-])c1` the “activity change, negative = inhibition” value was inactive: 4.11%. With `CCOc1ccc(C(=O)NCC2(N3CCOCC3)CCCCC2)cc1` the “activity change, negative = inhibition” value was inactive: 50%. For `CSc1ccc(C(=O)NCC2(N3CCOCC3)CCCCC2)cc1`, the “activity change, negative = inhibition” value was inactive: -1.74%. In the case of `N#CC1(Nc2ccccc2)CCN(CCc2ccccc2)CC1`, the “activity change, negative = inhibition” value is reported as inactive: 8.77%. With `CCN1CCC(Nc2ccc(Cl)cc2)CC1` the “activity change, negative = inhibition” value was inactive: -24.8%. For `Cc1ccc(OCC(C)C)c(CN(CCCl)CCCl)c1`, the Potency was active: 10 µM. `COc1cc(C(=O)NCC2(N(C)C)CCCCC2)ccc1OC(F)F` was tested, and the “activity change, negative = inhibition” value was inactive: -2.67%. With `CCOC(=O)N1CCC(Nc2cccc(C)c2)CC1` the “activity change, negative = inhibition” value was inactive: -2.47%. For `CCOc1ccc(C)cc1CN(CCCl)CCCl`, the Potency was active: 7.94 µM. `O=C(NCC1(N2CCOCC2)CCCCC1)c1ccc(Cl)cc1` was tested, and the “activity change, negative = inhibition” value was inactive: -7.45%. For `CCOC(=O)N1CCC(Nc2ccc(F)cc2)CC1`, the “activity change, negative = inhibition” value was inactive: 1.95%. With `COc1ccc(NC2CCN(CCc3ccccc3)CC2)c(OC)c1` the “activity change, negative = inhibition” value was inactive: -25%. With `O=C(NCC1(N2CCCCC2)CCCCC1)c1ccc(F)cc1` the “activity change, negative = inhibition” value was inactive: -7.2%. `CCCCOc1ccc(C(=O)NCC2(N3CCOCC3)CCCCC2)cc1` was tested, and the “activity change, negative = inhibition” value was inactive: -7.43%. `COc1ccccc1C(=O)NCC1(N2CCOCC2)CCCCC1` was tested, and the “activity change, negative = inhibition” value was inactive: 1.67%. `O=C(NCC1(N2CCOCC2)CCCCC1)c1cc2ccccc2o1` was tested, and the “activity change, negative = inhibition” value was inactive: -12.2%. In the case of `Cc1cc(C)cc(N(C(=O)c2ccccc2)C2CCN(C(=O)OC(C)(C)C)CC2)c1`, the “activity change, negative = inhibition” value is reported as inactive: -20.5%. In the case of `O=C(NCC1(N2CCCCC2)CCCCC1)c1ccc(Cl)nc1`, the “activity change, negative = inhibition” value is reported as inactive: -0.38%. In the case of `CCOC(=O)N1CCC(Nc2ccc(OC)cc2)CC1`, the “activity change, negative = inhibition” value is reported as inactive: -16.3%. With `COc1ccc(Cl)cc1C(=O)NCC1(N2CCOCC2)CCCCC1` the “activity change, negative = inhibition” value was inactive: -8.33%. For `O=C(OC1CN2CCC1CC2)C1c2ccccc2Oc2ccccc21` (stereo unspecified), the “activity change, negative = inhibition” value was inactive: 3.18%. With `O=C(NCC1(N2CCCCC2)CCCCC1)c1ccc(Cl)s1` the “activity change, negative = inhibition” value was inactive: -0.0951%.

— PubChem BioAssay AID485364 (National Center for Advancing Translational Sciences (NCATS), 2010)
% is set by controls: 0 for no effect and ±100 for the full control effect; potency is the fitted concentration of half-maximal effect.
Note: nearly all actives have a fitted effect of over 60% in size.
